The text below walks through data of US20260216172A1, “COMPOUNDS AND METHOD FOR TREATING HIV INFECTION” (The United States of America, as represented by the …, priority 2023, published 2026).

The source's definition of the ratio is not given here. Where only a bound is given, the exact number is not on record here.

This series relates to HIV-1RF. Nature of the series: Anti-HIV cytoprotection evaluation in CEM-SS cells (CPE inhibition, XTT). The series is classed as cell-based. The note with it: therapeutic index (TI50). Here is the method:
(§1) (a) Anti-HIV Cytoprotection Evaluation: Inhibition of virus-induced cytopathic effects (CPE) and cell viability following HIV replication in CEM-SS cells were measured by the use of XTT tetrazolium dye. CEM-SS cells (2.5×10^3 cells per well) were seeded in 96-well U-bottomed tissue culture plates in RPMI medium supplemented with 10% FBS, 2 mM L-glutamine, 100 U/ml penicillin and 100 μg/ml streptomycin. Serially diluted compounds (6 concentrations) and HIV-1RF diluted to a pre-determined titer to yield 85 to 95% cell killing at 6 days post-infection were be added to the plate. AZT was evaluated in parallel as a positive control. Following incubation at 37° C., 5% CO2 for six days, cell viability was measured by XTT staining. The optical density of the cell culture plate will be determined spectrophotometrically at 450 and 650 nm using Softmax Pro 4.6 software. Percent CPE reduction of the virus-infected wells and the percent cell viability of uninfected drug control wells was calculated to define the EC50, TC50 and therapeutic index (TI50) using Microsoft Excel Xlfit4.
as §1, with “Inhibition” for “(a) Anti-HIV Cytoprotection Evaluation: Inhibition”, “by” for “by the use of”, “wells were” for “wells was”
`CCCC(=O)OCSc1ccccc1C(=O)NCCn1ccc(=O)c2cc(F)ccc21` [Compound 1, ((2-((2-(6-fluoro-4-oxoquinolin-1(4H)-yl)ethyl)carbamoyl)phenyl)thio)methyl butyrate] gave a TI of 100.

In the case of `CCCC(=O)OCSc1ccccc1C(=O)NCCn1ccc(=O)c2cc3c(cc21)OCO3` [Compound 2, ((2-((2-(8-oxo-[1,3]dioxolo[4,5-g]quinolin-5(8H)-yl)ethyl)carbamoyl)phenyl)thio)methyl butyrate], the TI came out at 28.

In turn, `CCCC(=O)OCSc1ccccc1C(=O)NCCn1cc(C(=O)NCc2cccc(C)n2)c(=O)c2cc3c(cc21)OCO3` [Compound 4, ((2-((2-(7-(((6-methylpyridin-2-yl)methyl)carbamoyl)-8-oxo-[1,3]dioxolo[4,5-g]quinolin-5(8H)-yl)ethyl)carbamoyl)phenyl)thio)methyl butyrate] returned a TI greater than 208.

As for `CCCC(=O)OCSc1ccccc1C(=O)NCCn1cc(C(=O)NCc2ccccn2)c(=O)c2cc3c(cc21)OCO3` [Compound 5, ((2-((2-(8-oxo-7-((pyridin-2-ylmethyl)carbamoyl)-[1,3]dioxolo[4,5-g]quinolin-5(8H)-yl)ethyl)carbamoyl)phenyl)thio)methyl butyrate], the TI is reported as greater than 185.

Turning to `CCCC(=O)OCSc1ccccc1C(=O)NCCn1cc(C(=O)NCc2cccc(C)n2)c(=O)c2cc3c(cc21)OC(F)(F)O3` [Compound 17, ((2-((2-(2,2-difluoro-7-(((6-methylpyridin-2-yl)methyl)carbamoyl)-8-oxo-[1,3]dioxolo[4,5-g]quinolin-5(8H)-yl)ethyl)carbamoyl)phenyl)thio)methyl butyrate], the TI is reported as greater than 67.6.
